Laboratory results reported in patent US12099051B2 (priority 2022, dated 2024).
In brackets after ≈: the same amount, converted by molar mass. Like-named read-outs stand apart in the source and are kept apart here.

Key:
Caenorhabditis elegans = assay: oxidative stress (ROS, DCFH-DA fluorescence) of Caenorhabditis elegans; type: in vivo; conditions: 48 h exposure
[1] = tested on: Caenorhabditis elegans mutant strain Daf-16 (mu86); assay: growth and development of mutant strain Daf-16 (mu86); type: in vivo; conditions: same concentration as N2
[2] = tested on: Caenorhabditis elegans mutant strain Daf-2 (e1370); assay: growth and development of mutant strain Daf-2 (e1370); type: in vivo; conditions: compared with N2 wild type
[3] = tested on: Caenorhabditis elegans mutant strain Daf-16 (mu86); assay: reproductive ability of mutant strain Daf-16 (mu86); type: in vivo; conditions: same concentration as N2
[4] = tested on: Caenorhabditis elegans mutant strain Daf-2 (e1370); assay: reproductive ability of mutant strain Daf-2 (e1370); type: in vivo; conditions: same concentration as N2
[5] = tested on: Caenorhabditis elegans (N2 wild-type); conditions: for body length ratio: 25 μg/mL separate and joint; for EC50: growth and development
[6] = tested on: Caenorhabditis elegans (N2 wild-type)

## CCC(C)C1NC(=O)/C(=C(/C)O)C1=O (centres unmarked)
Caenorhabditis elegans; 12.5 μg/mL separate and joint
  relative fluorescence intensity ratio (ROS): 129.26%
Caenorhabditis elegans; 25 μg/mL separate and joint
  relative fluorescence intensity ratio (ROS): 147.51%
[1]
  body length ratio of Daf-16 mutant strain compared with N2 wild type: higher body length ratio than the N2 wild type
[2]
  effect of Daf-2 gene silencing on developmental toxicity: does not slow down the developmental toxicity
[3]
  spawning rate of Daf-16 mutant strain compared with N2 wild-type: higher spawning rate than the N2 wild-type
[4]
  spawning rate of Daf-2 mutant strain compared with N2: no significant difference from N2
[5]; 48 h exposure
  body length ratio: 59.16%
[5]; exposure for 24 h
  body length ratio: 57.80%
[5]; N2 wild-type, compared with blank group
  concentration at which nematode's body length is significantly confined (P<0.001): 12.5 µg/mL
[5]; exposing for 24 h
  EC50: 32.42 µg/mL (≈ 164 µM)
[5]; exposing for 48 h
  EC50: 38.30 µg/mL (≈ 194 µM)
[6]; 25 μg/mL separate and joint, 48 h exposure
  spawning rate: 70.63%
[6]; N2 wild-type, compared with blank group, 48 h exposure
  concentration at which nematode's spawning rate is significantly confined (P<0.001): 12.5 µg/mL
[6]; reproductive capacity, exposing for 48 h
  EC50: 33.20 µg/mL (≈ 168 µM)
